Record: PubChem BioAssay AID1259414 (Drosophila RNAi Screening Center, 2018)
Screen: 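Host factors increasing or decreasing Wolbachia levels in cultured fly cells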 (primary screen). Cells: Drosophila JW18 cells infected with Wolbachia. Reagent: long dsRNA against Drosophila genes, 0.25 µg dsRNA per well of a 384-well plate. Duration: 5 days. Conditions: cells persistently infected with Wolbachia before knock-down; no added drug. Measurement: 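Automated imaging of bacterial rRNA staining divided by host cell count, reported as plate-normalised robust z-score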. Direction: Wolbachia per cell robust z: higher = more Wolbachia per host cell than the plate typical. Active means: 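Active if absolute robust z reaches 1.5 in two or more of three replicates, leaving out multi- or no-target dsRNAs, genes unexpressed in JW18 and A1 wells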.
In all, the deposit lists about 24,000 reagents; this is an unselected part of those that have a named target and a result. Over the whole deposit, about 1,210 (5%) got an active call. 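Inactive calls also include excluded dsRNAs with several or no targets, genes unexpressed in JW18, and well A1, regardless of score.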 Entries without a mark were called inactive.

gene | PubChem SID | Wolbachia per cell robust z, rep 1 | Wolbachia per cell robust z, rep 2 | Wolbachia per cell robust z, rep 3
Cdc2rk | SID104187382 | 0.614 | -0.0779 | 0.745
Cdc2rk | SID104208302 | -0.806 | -0.711 | 0.159
CG11586 | SID104187995 | 0.558 | 1.09 | 0.322
CG11586 | SID104206003 | 0.206 | 0.95 | 0.455
CG4218 | SID104181731 | -0.944 | -0.212 | 0.204
CG4218 | SID104206358 | 0.546 | 1.15 | 1.54
Gr89a | SID104194815 | -0.00472 | 1.38 | 0.0847
CG11085 | SID104199166 | 0.754 | 1.4 | 0.589
CG11085 | SID104202191 | -0.365 | -4.82 | 0.264
CG11085 | SID104203749 | -0.877 | 1.14 | -0.159
Krn | SID104190994 | 1.21 | 0.823 | 0.828
Achl | SID104186457 | 0.41 | 1.09 | 0.643
Achl | SID104207910 | -1.78 | -0.114 | 0.0434
Atg13 | SID104196020 | -4.22 | 0.58 | 1.09
CG31174 | SID104193310 | -1.03 | 0.573 | -0.2
Sulf1 | SID104196666 | -0.515 | -0.625 | -0.52
Sulf1 | SID104205823 | 0.126 | -0.237 | 0.229
NimB5 | SID104181677 | 0.194 | 0.417 | 0.499
Fem-1 | SID104187114 | 0.241 | -1.5 | -0.104
Fem-1 | SID104205558 | -0.211 | 0.2 | -0.755
CG33939 | SID104215498 | 0.402 | -0.147 | -7.8
CG3184 | SID104198081 | -0.521 | 0.886 | -0.417
CG43233 | SID104218104 | 0.28 | 1.05 | 0.713
Polr2C | SID104183207 | 1.24 | -0.398 | -10.6
Polr2C | SID104202807 | 0.933 | 1.56 | 0.844
CG31674 | SID104183000 | 0.947 | 0.25 | -4.76
CG31674 | SID104205576 | -0.737 | 1.45 | 0.0974
Vsp37A | SID104198586 | 0.815 | 0.313 | 0.418
Sgs3 | SID104191072 | -0.66 | -0.42 | 0.572
Sgs3 | SID104206754 | 1.01 | -0.631 | -2.38
Sgs3 | SID104216521 | -0.347 | -1.6 | -1.17
RpL38 | SID104187610 | 2.22 | 1.11 | 0.962
CG4586 | SID104198165 | -0.117 | -0.0496 | 0.395
AlkB | SID104198907 | 1.19 | -0.135 | -2
cdm | SID104196005 | -4.18 | -0.889 | 0.066
CG3819 | SID104190170 | -0.0044 | 0.4 | 1.08
CG3819 | SID104206219 | 0.208 | -0.314 | 0.293
Prosalpha7 | SID104187308 | 1.06 | -2.05 | 2.32
Prosalpha7 | SID104207909 | 2.6 (active) | 1.71 | 2.11
Nop17l | SID104186348 | -0.35 | 1.14 | 0.579
Nop17l | SID104207974 | -1.13 | -1.12 | -0.558
CG15930 | SID104197899 | 1.06 | 0.356 | -2.13
CG15930 | SID104208200 | -0.274 | 0.213 | 0.326
Elal | SID104196454 | -0.8 | 1.17 | -2.69
CG10841 | SID104194063 | 0.937 | 0.495 | -1.59
CG10841 | SID104206686 | -0.731 | -1.04 | -1.47
CG30095 | SID104186967 | 0.109 | -0.509 | 0.203
dpr7 | SID104196901 | -8 | 0.889 | 0.6
dpr7 | SID104205088 | -2.41 | 0.315 | -0.725
CG31698 | SID104201757 | -0.827 | 1 | 1.2
CG31698 | SID104207107 | 1.16 | 1.55 | 1.09
Ekar | SID104196953 | -1.71 | -0.315 | -0.673
Ekar | SID104203486 | -0.191 | -0.549 | -0.368
CG31262 | SID104193008 | 0.104 | -0.619 | 0.729
Dif | SID104183108 | -1.73 | -0.28 | -0.26
lncRNA:CR13130 | SID104182018 | -0.271 | 1.49 | 0.949
lncRNA:CR13130 | SID104203567 | -0.475 | 0.88 | -1.92
CG7149 | SID104182808 | 0.648 | 1.09 | -0.222
CG6614 | SID104182766 | 0.292 | -0.000687 | -0.97
CG31664 | SID104201655 | -0.126 | -0.865 | 0.633
mof | SID104198587 | 0.44 | -2.8 | 0.231
mof | SID104203040 | -0.163 | -2.05 | -1.4
CG2126 | SID104195210 | 0.786 | 0.899 | -1.89
CG33631 | SID104216398 | 0.941 | -0.681 | 1.42
CG33631 | SID104218233 | -3.03 | -2.54 | 0.721
dpr3 | SID104180187 | -0.526 | -2.79 | -1.57
dpr3 | SID104180188 | 0.0198 | 1.39 | -0.146
CG3526 | SID104197032 | 0.361 | 0.0688 | 1.38
CG3526 | SID104198428 | -0.393 | 0.221 | 0.501
CG3526 | SID104203184 | -0.484 | 0.22 | -0.191

Reagents listed so far with an active call, once more:
gene | PubChem SID | Wolbachia per cell robust z, rep 1 | Wolbachia per cell robust z, rep 2 | Wolbachia per cell robust z, rep 3
Prosalpha7 | SID104207909 | 2.6 (active) | 1.71 | 2.11
